Measured values from several laboratories, pooled; numbers as filed in NIAID ChemDB.

Common to all: whole-cell or culture tests; organism: Punta Toro virus

Lines come from different laboratories, so protocols vary. ECn is the concentration giving n% inhibition of infection, replication or growth. An empty or dashed field is not shown. a–b is a range or a potency band.

SMILES | strain | cell line | read by | endpoint | value
Nc1nc(-n2c(-c3ccccc3)nc3ccc(Br)cc3c2=O)nnc1-c1cccc(Cl)c1Cl |  | E6SM | cytopathic effect | EC50 | >16 µg/mL
CC(=O)OC[C@H]1O[C@@H](n2ncc(=S)[nH]c2=O)C(OC(C)=O)C1OC(C)=O | Adames | VERO | cytopathic effect | EC50 | 17.4 µg/mL
N=C(N)c1ncn([C@@H]2O[C@H](CO)[C@@H](O)[C@H]2O)n1 |  |  |  | EC50 | 1–100 µM
O=c1cnn([C@@H]2O[C@H](COP(=O)(O)O)[C@@H](O)[C@H]2O)c(=O)[nH]1 | Adames | VERO | cytopathic effect | EC50 | 1.82 µg/mL
CCc1nc(-n2c(-c3ccccc3)nc3ccc(Br)cc3c2=O)nc(N)c1-c1ccc(Cl)cc1 |  | E6SM | cytopathic effect | EC50 | >80 µg/mL
CC(C)CS[C@@H]1C[C@H](n2cnc3c(N)ncnc32)[C@@H](O)[C@H]1O |  | HeLa | cytopathic effect | EC50 | >80 µg/mL
CCn1nc(-c2ccc(Cn3ccc4ccccc43)cc2)nc1C |  |  |  | MIC | >80 µg/mL
CN[C@H]1C[C@@H](n2cnc3c(N)ncnc32)[C@H](O)[C@@H]1O |  | HFF |  | EC50 | >100 µg/mL
Cc1nc(Cc2n[nH]c(=S)n2-c2ccccc2)nn1C |  |  |  | MIC | >80 µg/mL
O=c1[nH]c(=S)cnn1[C@@H]1O[C@H](CO)C(O)C1O | Adames | VERO | cytopathic effect | EC50 | 16.5 µg/mL
N=C(N)c1ncn([C@@H]2O[C@H](CO)[C@@H](O)[C@H]2O)n1 | Balliet | LLC-MK2 |  | EC50 | 12 µg/mL
O=c1cnn([C@@H]2O[C@H](CO)[C@@H](O)[C@H]2O)c(=O)[nH]1 | Adames | VERO | cytopathic effect | EC50 | 0.68 µg/mL
CCn1nc(CC(=O)N/N=C/c2ccco2)nc1C |  |  |  | MIC | >80 µg/mL
COc1cc(Cc2cnc(-n3c(-c4ccccc4)nc4ccc(Br)cc4c3=O)nc2N)cc(OC)c1OC |  | E6SM | cytopathic effect | EC50 | >80 µg/mL

Repeating the first 2 entries:

{"SMILES": "Nc1nc(-n2c(-c3ccccc3)nc3ccc(Br)cc3c2=O)nnc1-c1cccc(Cl)c1Cl", "cell line": "E6SM", "read by": "cytopathic effect", "endpoint": "EC50", "value": ">16 µg/mL"}
{"SMILES": "CC(=O)OC[C@H]1O[C@@H](n2ncc(=S)[nH]c2=O)C(OC(C)=O)C1OC(C)=O", "strain": "Adames", "cell line": "VERO", "read by": "cytopathic effect", "endpoint": "EC50", "value": "17.4 µg/mL"}